This is a selection; strong and weak results do not stand in their true shares. Records with an inconclusive call do not appear. The source made the active and inactive calls. No stated cut-off is given here; in the data, active means inhibition above about 35% (passing the limit was not always enough); inconclusive means no clear call, values can overlap the other calls.
What follows are molecules tested on Botulinum neurotoxin type F light chain protease (Clostridium botulinum) (assay: BoNT/F light chain protease inhibitors, primary screen, biochemical, flow cytometry, MLPCN library (AID 588497; further: plate controls were buffer without enzyme for full effect and enzyme alone for no effect)). Details: Multiplex microsphere protease cleavage assay, at 10 µM, stronger effect = higher value.

Structure (SMILES) | inhibition
CC(C)(C)OC(=O)N1CCC(Nc2ccccc2)CC1 | inactive: -12.3%
O=C(O)C1(Nc2ccccc2)CCN(Cc2ccccc2)CC1 | inactive: -6.4%
NN(c1ccccc1)C1CCN(CCc2ccccc2)CC1 | inactive: -15.2%
O=c1[nH]c2ccccc2n1C1CCN(C(c2cc3ccccc3o2)c2nnnn2C2CCCC2)CC1 (centres undefined) | inactive: -13.4%
CCCOc1ccc(C(=O)NCC2(N(C)C)CCCCC2)cc1 | inactive: -1.8%
CCOc1ncccc1C(=O)NCC1(N2CCOCC2)CCCCC1 | inactive: -2.6%
CN1CCC(Nc2ccc(F)c(Cl)c2)CC1 | active: 37.6%
CN1CCC(Nc2ccc(Cl)cc2)CC1 | inactive: -17.4%
COc1cccc(C(c2nnnn2C2CCCC2)N2CCC(n3c(=O)[nH]c4ccccc43)CC2)c1OC (centres undefined) | inactive: 0.7%
COc1cc(OC)cc(C(=O)NCC2(N3CCOCC3)CCCCC2)c1 | inactive: 0.3%
COc1cccc(C(=O)N(c2cc(C)cc(C)c2)C2CCN(C(=O)OC(C)(C)C)CC2)c1 | inactive: 10.2%
CCC(CO)(C(=O)OC1CN2CCC1CC2)c1ccccc1 (centres undefined) | inactive: 6.2%
Cc1ccc(C(=O)NCC2(N3CCCCC3)CCCCC2)o1 | inactive: 8.3%
Fc1ccccc1NC1CCN(Cc2ccccc2)CC1 | inactive: -0.5%
Cc1ccc(NC2(C#N)CCN(Cc3ccccc3)CC2)cc1 | inactive: -2%
COc1cccc(C(c2nnnn2C2CCCCC2)N2CCC(n3c(=O)[nH]c4ccccc43)CC2)c1OC (centres undefined) | inactive: 0.7%
CC(=O)N(c1ccccc1)C1CCNCC1 | inactive: 2.4%
CCC(c1nnnn1C1CCCCC1)N1CCC(n2c(=O)[nH]c3ccccc32)CC1 (centres undefined) | inactive: 6.1%
COc1cc(OC)cc(C(=O)NCC2(N3CCCCC3)CCCCC2)c1 | inactive: 7.7%
O=c1[nH]c2ccccc2n1C1CCN(C(c2ccnc3ccccc23)c2nnnn2C2CCCCC2)CC1 (centres undefined) | inactive: -3.2%
O=C(NCC1(N2CCCCC2)CCCCC1)c1ccco1 | inactive: -4%
CN(C)c1ccc(C(=O)NCC2(N3CCCCC3)CCCCC2)cc1 | inactive: 0.4%
Cn1c(=O)[nH]cc(N(CCCl)CCCl)c1=O | inactive: 1.5%
Cc1ccccc1NC1(C#N)CCN(Cc2ccccc2)CC1 | inactive: 1.1%
COc1ccc(C(c2nnnn2C2CCCCC2)N2CCC(n3c(=O)[nH]c4ccccc43)CC2)cc1 (centres undefined) | inactive: -1.6%
CCN1CCC(Nc2cccc(F)c2)CC1 | inactive: 9.9%

Structure (SMILES) | inhibition
CC(C)(C)n1nnnc1C(c1ccnc2ccccc12)N1CCC(n2c(=O)[nH]c3ccccc32)CC1 (centres undefined) | inactive: 2.9%
N#Cc1ccc(C(=O)NCC2(N3CCCCC3)CCCCC2)cc1 | inactive: 3.3%
CC(C)(C)OC(=O)N1CCC(N(C(=O)c2ccccc2)c2ccc(Cl)cc2)CC1 | inactive: -4.5%
CC(C)(C)n1nnnc1C(c1cccc2ccccc12)N1CCC(n2c(=O)[nH]c3ccccc32)CC1 (centres undefined) | inactive: -0.6%
CN(C)C1(CNC(=O)c2cccc(C#N)c2)CCCCC1 | inactive: -10.4%
c1ccc(CN2CCC(Nc3ccccc3)CC2)cc1 | inactive: 4.4%
O=c1[nH]c2ccccc2n1C1CCN(C(c2ccccc2)c2nnnn2C2CCCC2)CC1 (centres undefined) | inactive: -1.2%
CCCN1CCC(Nc2cc(OC)cc(OC)c2)CC1 | inactive: -106%
Cc1cc(N(CCCl)CCCl)ccc1C=O | inactive: -14.6%
O=c1[nH]c2ccccc2n1C1CCN(C(c2cccs2)c2nnnn2C2CCCCC2)CC1 (centres undefined) | inactive: 0.7%
COc1ccc(C(=O)NCC2(N3CCOCC3)CCCCC2)cc1OC | inactive: 0.8%
O=c1[nH]c2ccccc2n1C1CCN(C(c2ccnc3ccccc23)c2nnnn2C2CCCC2)CC1 (centres undefined) | inactive: 11.8%
CCCCn1nnnc1C(c1ccccc1)N1CCC(n2c(=O)[nH]c3ccccc32)CC1 (centres undefined) | inactive: 6.6%
COc1cc(C(=O)NCC2(N3CCOCC3)CCCCC2)cc(OC)c1C | inactive: 0.8%
O=C(NCC1(N2CCOCC2)CCCCC1)c1cc(Br)ccc1Cl | inactive: 6.1%
O=C(OC1CN2CCC1CC2)C1c2ccccc2C=Cc2ccccc21 (centres undefined) | inactive: -1.3%
O=c1[nH]c2ccccc2n1C1CCN(C(c2cccs2)c2nnnn2C2CCCC2)CC1 (centres undefined) | inactive: -1.1%
CCCCn1nnnc1C(c1cccc(OC)c1OC)N1CCC(n2c(=O)[nH]c3ccccc32)CC1 (centres undefined) | inactive: 5.4%
COc1cccc(C(c2nnnn2C(C)(C)C)N2CCC(n3c(=O)[nH]c4ccccc43)CC2)c1OC (centres undefined) | inactive: -29.5%
N/C(=N\O)c1c(N)no[n+]1[O-] | inactive: -6.1%
COc1cc(OC)c(C(=O)NCC2(N(C)C)CCCCC2)cc1OC | inactive: -25.8%
O=C(NCC1(N2CCOCC2)CCCCC1)c1cc(F)c(F)cc1Cl | inactive: -5.9%
CCC(c1nnnn1C(C)(C)C)N1CCC(n2c(=O)[nH]c3ccccc32)CC1 (centres undefined) | inactive: -1%
CCCCn1nnnc1C(c1ccnc2ccccc12)N1CCC(n2c(=O)[nH]c3ccccc32)CC1 (centres undefined) | inactive: -6.3%
CC(C)c1ccc(NC2CCN(C(=O)OC(C)(C)C)CC2)cc1 | inactive: -7.4%
CCCCn1nnnc1C(c1ccccc1OC(F)(F)F)N1CCC(n2c(=O)[nH]c3ccccc32)CC1 (centres undefined) | inactive: -4.6%

Structure (SMILES) | inhibition
COc1ccc(CN(CCCl)CCCl)cc1Cl | inactive: 2.3%
CN(C)c1cccc(C(=O)NCC2(N3CCCCC3)CCCCC2)c1 | inactive: -0.9%
COc1ccc(C(c2nnnn2C2CCCC2)N2CCC(n3c(=O)[nH]c4ccccc43)CC2)cc1 (centres undefined) | inactive: 16%
Cc1ccc(C(=O)NCC2(N(C)C)CCCCC2)o1 | inactive: -2.3%
CCCOc1ccc(C(=O)NCC2(N(C)C)CCCCC2)cc1OC | inactive: 0.4%
CN1CCC(Nc2cccc(F)c2)CC1 | inactive: -2.5%
O=C(NCC1(N2CCCCC2)CCCCC1)c1cncc(Br)c1 | inactive: -3.1%
O=c1[nH]c2ccccc2n1C1CCN(C(c2ccccc2OC(F)(F)F)c2nnnn2C2CCCC2)CC1 (centres undefined) | inactive: -0.8%
N#CC1(Nc2ccccc2)CCN(CCc2ccccc2)CC1 | inactive: 7.2%
CSc1ccc(C(=O)NCC2(N3CCOCC3)CCCCC2)cc1 | inactive: 15.5%
O=C(NCC1(N2CCCCC2)CCCCC1)c1cccc([N+](=O)[O-])c1 | inactive: 3.4%
CC(C)(C)n1nnnc1C(c1ccccc1OC(F)(F)F)N1CCC(n2c(=O)[nH]c3ccccc32)CC1 (centres undefined) | inactive: 5.9%
O=C(NCC1(N2CCCCC2)CCCCC1)c1ccc(OC(F)F)cc1 | inactive: 24.4%
COc1cc(C(=O)NCC2(N3CCCCC3)CCCCC2)ccc1OC(F)F | inactive: 21%
O=C(NCC1(N2CCOCC2)CCCCC1)c1cc(=O)[nH]c2ccccc12 | inactive: -1.7%
CN1CCN(CCOC(=O)C(O)(c2ccccc2)c2ccccc2)CC1 | inactive: -0.1%
COc1ccc(NC2CCN(C(=O)OC(C)(C)C)CC2)cc1 | inactive: -2.3%
CC(C)c1ccc(C(=O)NCC2(N3CCOCC3)CCCCC2)cc1 | inactive: -6.5%
CCCCn1nnnc1C(c1cccc2ccccc12)N1CCC(n2c(=O)[nH]c3ccccc32)CC1 (centres undefined) | inactive: 0.8%
O=C(NCC1(N2CCCCC2)CCCCC1)c1cccc(C(F)(F)F)c1 | inactive: 2.3%
O=P1(N(CCCl)CCCl)SCCCS1 | inactive: -1.7%
CCCCn1nnnc1C(c1cc2ccccc2o1)N1CCC(n2c(=O)[nH]c3ccccc32)CC1 (centres undefined) | inactive: 0.7%
CCCCOc1ccc(C(=O)NCC2(N3CCOCC3)CCCCC2)cc1 | inactive: 7.3%
O=C(NCC1(N2CCCCC2)CCCCC1)c1ccc(F)cc1 | inactive: -5.7%
COc1ccc(NC2CCN(CCc3ccccc3)CC2)c(OC)c1 | inactive: -17%
CCOC(=O)N1CCC(Nc2ccc(F)cc2)CC1 | inactive: -0.2%

Structure (SMILES) | inhibition
CC(C)(C)n1nnnc1C(c1ccccc1)N1CCC(n2c(=O)[nH]c3ccccc32)CC1 (centres undefined) | inactive: 9.7%
O=C1CCN(Cc2ccccc2)CC1 | inactive: 2.3%
CCOc1ccc(C)cc1CN(CCCl)CCCl | inactive: 0.9%
COc1cc(C(=O)NCC2(N(C)C)CCCCC2)ccc1OC(F)F | inactive: 15.8%
O=c1[nH]c2ccccc2n1C1CCN(C(c2cccc3ccccc23)c2nnnn2C2CCCC2)CC1 (centres undefined) | inactive: 4.6%
O=c1[nH]c2ccccc2n1C1CCN(C(c2ccccc2)c2nnnn2C2CCCCC2)CC1 (centres undefined) | inactive: -0.1%
CSc1ccccc1C(=O)NCC1(N2CCCCC2)CCCCC1 | inactive: -11.2%
Cc1cccc(NC2(C#N)CCN(Cc3ccccc3)CC2)c1 | inactive: 2.1%
COc1ccc(C(=O)NCC2(N3CCCCC3)CCCCC2)cc1 | inactive: 9.4%
COc1ccc(C(=O)NCC2(N3CCCCC3)CCCCC2)c(OC)c1OC | inactive: 1.4%
CC(C)(C)OC(=O)N1CCC(N(C(=O)c2ccccc2)c2ccc(F)cc2)CC1 | inactive: -23.2%
CCC(c1nnnn1C1CCCC1)N1CCC(n2c(=O)[nH]c3ccccc32)CC1 (centres undefined) | inactive: 6.8%
O=C(NCC1(N2CCCCC2)CCCCC1)c1ccc(=O)[nH]c1 | inactive: -4.1%
CCCCn1nnnc1C(CC)N1CCC(n2c(=O)[nH]c3ccccc32)CC1 (centres undefined) | inactive: 0.9%
O=C(NCC1(N2CCCCC2)CCCCC1)c1cccs1 | inactive: -11.8%
CCCCn1nnnc1C(c1cccs1)N1CCC(n2c(=O)[nH]c3ccccc32)CC1 (centres undefined) | inactive: 0.3%
O=C(NCC1(N2CCCCC2)CCCCC1)c1ccc(Cl)s1 | inactive: -14.1%
O=C(OC1CN2CCC1CC2)C1c2ccccc2Oc2ccccc21 (centres undefined) | inactive: -0.1%
O=c1[nH]c2ccccc2n1C1CCN(C(c2cc3ccccc3o2)c2nnnn2C2CCCCC2)CC1 (centres undefined) | inactive: -5.5%
COc1ccc(Cl)cc1C(=O)NCC1(N2CCOCC2)CCCCC1 | inactive: 0.1%
CCOC(=O)N1CCC(Nc2ccc(OC)cc2)CC1 | inactive: -5.4%
CCCCn1nnnc1C(c1ccc(OC)cc1)N1CCC(n2c(=O)[nH]c3ccccc32)CC1 (centres undefined) | inactive: -9.9%
O=C(NCC1(N2CCCCC2)CCCCC1)c1ccc(Cl)nc1 | inactive: 0.6%
O=c1[nH]c2ccccc2n1C1CCN(C(c2ccccc2OC(F)(F)F)c2nnnn2C2CCCCC2)CC1 (centres undefined) | inactive: 0.8%
Cc1cc(C)cc(N(C(=O)c2ccccc2)C2CCN(C(=O)OC(C)(C)C)CC2)c1 | inactive: 2.6%
O=C(NCC1(N2CCOCC2)CCCCC1)c1cc2ccccc2o1 | inactive: -3.8%
